Measurements from US5180831A (priority 1990, dated 1993).

How the values were obtained:
[1] = Intramuscular pretreatment against GD in mice, 24 h survival
[2] = Oral pretreatment against GD in mice, 24 h survival; conditions: for % survival: oral

CN(C)C(=O)Oc1ccc(C=NO)[n+](C)c1
% survival ([1]; 15 min, 37 μmol/kg): 90%
% survival ([1]; 60 min, 9.0 μmol/kg): 90%

CN(C)C(=O)Oc1ccc[n+](C)c1C=NNC(N)=O
% survival ([1]; 15 min, 0.2 μmol/kg): 50%
% survival ([1]; 15 min, 0.6 μmol/kg): 80%
% survival ([1]; 15 min, 2.3 μmol/kg): 80%
% survival ([1]; 60 min, 0.2 μmol/kg): 90%
% survival ([1]; 60 min, 0.6 μmol/kg): 100%
% survival ([1]; 60 min, 2.3 μmol/kg): 80%

CN(C)C(=O)Oc1ccc[n+](C)c1 [Pyr, Pyridostigmine]
survival in words ([2]; pyridostigmine alone, 120 min prior to challenge): no survival

COc1ccc(CON=Cc2c(OC(=O)N(C)C)ccc[n+]2C)cc1
% survival ([2]; 120 min, 2.2 μmol/kg): 100%

C[n+]1ccccc1C=NNC(=O)C[n+]1ccccc1 [Compound 5b, 2-(1-Methyl-2-pyridinemethylene)-1-[2-(1-pyridinium)acetyl]hydrazine dichloride]
% survival ([1]; 60 min, 96 μmol/kg): 100%

CN(C)C(=O)Oc1ccc[n+](C)c1C=NNC(=O)Nc1ccccc1
% survival ([2]; 30 min, 10 μmol/kg): 70%
% survival ([2]; 120 min, 10 μmol/kg): 100%
% survival ([1]; 15 min, 0.65 μmol/kg): 90%
% survival ([1]; 15 min, 2.7 μmol/kg): 90%
% survival ([1]; 15 min, 11 μmol/kg): 40%
